Pooled drug test results. Numbers come from NIAID ChemDB, via PubChem.

All rows: host cell toxicity; cells: HFF; measure: CC50

Conditions beyond the fields shown may differ between rows. CCn is the concentration with n% toxicity to the cells.

{"structure": "CCCCCCC[CH2][Sn]([Cl])([Cl])[CH2]CCCCCCC", "result": "75 µg/mL"}
{"structure": "NC(=O)c1c(Br)n(COC(CO)CO)c2ncnc(N)c12", "read by": "visual reading", "result": "100 µM"}
{"structure": "C[CH2][Sn]([Br])([Br])[CH2]C.c1cnc2c(c1)ccc1cccnc12", "result": "17 µg/mL"}
{"structure": "CN(C)CCCN1c2ccccc2Sc2ccc(Cl)cc21", "result": "6 µg/mL"}
{"structure": "COC(=O)[C@H](C)NP(=O)(OC[C@H]1C/C1=C\\n1cnc2c(=O)[nH]c(N)nc21)Oc1ccccc1", "result": ">211 µM"}
{"structure": "N#Cc1c(Br)n(COC(CO)CO)c2ncnc(N)c12", "read by": "visual reading", "result": "100 µM"}
{"structure": "Nc1nc(NC2CC2)c2ncn(C=C3CC3CO)c2n1", "result": "327 µM"}
{"structure": "NC(=O)N1c2ccccc2C=Cc2ccccc21", "result": "100 µg/mL"}
{"structure": "N#Cc1c(Br)n(COCCO)c2ncnc(N)c12", "read by": "visual reading", "result": "100 µM"}
{"structure": "C[CH](C)[Sn]([Cl])([Cl])[CH](C)C", "result": "8 µg/mL"}
{"structure": "NC(=O)c1c(Br)n(COCCO)c2ncnc(N)c12", "read by": "visual reading", "result": "100 µM"}
{"structure": "COC(=O)[C@H](C)NP(=O)(OCC1C/C1=C/n1cnc2c(N)ncnc21)Oc1ccccc1", "result": "4.3 µM"}
{"structure": "CCCCCC[CH2][Sn]([Cl])([Cl])[CH2]CCCCCC", "result": "26 µg/mL"}
{"structure": "O=C(CCCN1CCC(O)(c2ccc(Cl)cc2)CC1)c1ccc(F)cc1", "result": "103 µg/mL"}
{"structure": "CCCC[CH2][Sn]([Cl])([Cl])[CH2]CCCC", "result": "<1.4 µg/mL"}
{"structure": "Cc1cc2c(s1)Nc1ccccc1N=C2N1CCN(C)CC1", "result": "100 µg/mL"}
{"structure": "N#Cc1c(N)n(COCCO)c2ncnc(N)c12", "read by": "visual reading", "result": ">100 µM"}

For reference, 2 entries again:

NC(=O)c1c(Br)n(COCCO)c2ncnc(N)c12 ; read by: visual reading ; result: 100 µM
CCCCCCC[CH2][Sn]([Cl])([Cl])[CH2]CCCCCCC ; result: 75 µg/mL